Reference: patent US20240327339A1, “COMPOSITIONS AND METHODS FOR TREATING AND PREVENTING VIRAL INFECTIONS” (priority 2021, published 2024)

System: RSV A2
Assay: In vivo inhibition study, BALB/c mouse model of RSV infection
Parameters: species or system BALB/c mice

## CCCN(CCC)S(=O)(=O)c1ccc(C(=O)O)cc1 [Probenecid, 4-[(dipropylamino)sulfonyl] benzoic acid]
Females, Prophylactic 2 mg/kg, Day 3
  BAL cells/mL: 268750 cells/mL
Females, Prophylactic 2 mg/kg, Day 5
  BAL cells/mL: 256250 cells/mL
Females, Prophylactic 2 mg/kg, Day 7
  BAL cells/mL: 75000 cells/mL
Females, Prophylactic 200 mg/kg, Day 3
  BAL cells/mL: 308333.333 cells/mL
Females, Prophylactic 200 mg/kg, Day 5
  BAL cells/mL: 280000 cells/mL
Females, Prophylactic 200 mg/kg, Day 7
  BAL cells/mL: 125000 cells/mL
Females, Treatment 2 mg/kg, Day 3
  BAL cells/mL: 360000 cells/mL
Females, Treatment 2 mg/kg, Day 5
  BAL cells/mL: 270000 cells/mL
Females, Treatment 2 mg/kg, Day 7
  BAL cells/mL: 135000 cells/mL
Females, Treatment 200 mg/kg, Day 3
  BAL cells/mL: 312500 cells/mL
Females, Treatment 200 mg/kg, Day 5
  BAL cells/mL: 140000 cells/mL
Females, Treatment 200 mg/kg, Day 7
  BAL cells/mL: 91666.6667 cells/mL
Males, Prophylactic 2 mg/kg, Day 3
  BAL cells/mL: 125000 cells/mL
Males, Prophylactic 2 mg/kg, Day 5
  BAL cells/mL: 118750 cells/mL
Males, Prophylactic 2 mg/kg, Day 7
  BAL cells/mL: 90625 cells/mL
Males, Prophylactic 200 mg/kg, Day 3
  BAL cells/mL: 243750 cells/mL
Males, Prophylactic 200 mg/kg, Day 5
  BAL cells/mL: 293750 cells/mL
Males, Prophylactic 200 mg/kg, Day 7
  BAL cells/mL: 65625 cells/mL
Males, Treatment 2 mg/kg, Day 3
  BAL cells/mL: 193750 cells/mL
Males, Treatment 2 mg/kg, Day 5
  BAL cells/mL: 120000 cells/mL
Males, Treatment 2 mg/kg, Day 7
  BAL cells/mL: 87500 cells/mL
Males, Treatment 200 mg/kg, Day 3
  BAL cells/mL: 265000 cells/mL
Males, Treatment 200 mg/kg, Day 5
  BAL cells/mL: 145000 cells/mL
Males, Treatment 200 mg/kg, Day 7
  BAL cells/mL: 96875 cells/mL
